A mixed list of measured activities; the numbers were collected in NIAID ChemDB.

Common to all: growth or infection tests; agent: Mycobacterium avium

An empty or dashed field is not shown.

{"smiles": "O=C(Nc1ccc(Br)cc1)c1cc(Cl)ccc1OP(=O)(Oc1ccccc1)c1ccccc1", "read-out": "MIC", "conditions": "7 d", "strain": "MY330/88", "value": "16 µM"}
{"smiles": "N#Cc1cc(SCc2cccnc2)ccn1", "read-out": "MIC", "strain": "MY330/88", "value": "1000 µM"}
{"smiles": "CCn1cc(C(=O)O)c(=O)c2cc(F)c(N3CCN(C)CC3)cc21", "read-out": "MIC90", "strain": "13 strains", "value": ">64 µg/mL"}
{"smiles": "CCc1cc(C(N)=S)ccn1", "read-out": "MIC", "strain": "3011", "value": ">8 µg/mL"}
{"smiles": "N#Cc1cc(SCc2ccncc2)ccn1", "read-out": "MIC", "strain": "MY330/88", "value": "1000 µM"}
{"smiles": "CCn1cc(C(=O)O)c(=O)c2cc(F)c(N3CCNCC3)cc21", "read-out": "MIC", "strain": "PI4/44", "value": "32 µg/mL"}
{"smiles": "c1ccc2c(CSc3nc4ccccc4o3)cccc2c1", "read-out": "MIC", "strain": "MY330/88", "value": "250 µM"}
{"smiles": "CC(C)N=c1cc2n(-c3ccc(Cl)cc3)c3ccccc3nc-2cc1Nc1ccc(Cl)cc1", "read-out": "MIC", "strain": "1435", "value": "0.5 µg/mL"}
{"smiles": "O=C(Nc1ccc(Cl)cc1)c1cc(Cl)ccc1OP(=O)(c1ccccc1)c1ccccc1", "read-out": "MIC", "conditions": "7 d", "strain": "MY330/88", "value": "16 µM"}
{"smiles": "NC[C@H]1O[C@H](O[C@H]2[C@H](O)[C@@H](O[C@H]3O[C@H](CO)[C@@H](O)[C@H](N)[C@H]3O)[C@H](N)C[C@@H]2N)[C@H](N)C[C@@H]1O", "read-out": "Median MIC", "strain": "ATCC 25291", "value": "4 µg/mL"}
{"smiles": "CO[C@H]1/C=C/O[C@@]2(C)Oc3c(C)c(O)c4c(O)c(c(/C=N/N5CCN(C)CC5)c(O)c4c3C2=O)NC(=O)/C(C)=C\\C=C\\[C@H](C)[C@H](O)[C@@H](C)[C@@H](O)[C@@H](C)[C@H](OC(C)=O)[C@@H]1C", "read-out": "MIC", "strain": "6-13", "value": "10 µg/mL"}
{"smiles": "CC[C@H]1OC(=O)[C@H](C)[C@@H](O[C@H]2C[C@@](C)(OC)[C@@H](O)[C@H](C)O2)[C@H](C)[C@@H](O[C@@H]2O[C@H](C)C[C@H](N(C)C)[C@H]2O)[C@](C)(OC)C[C@@H](C)C(=O)[C@H](C)[C@@H](O)[C@]1(C)O", "read-out": "Mean MIC", "strain": "ATCC 25291", "value": "3.25 µg/mL"}
{"smiles": "CC1CN(c2c(F)c(N)c3c(=O)c(C(=O)O)cn(C4CC4)c3c2F)CCN1C", "read-out": "MIC", "strain": "RG3", "value": "0.25 µg/mL"}
{"smiles": "CO[C@H]1/C=C/O[C@@]2(C)Oc3c(C)c(O)c4c(O)c(c(/C=N/N5CCN(C)CC5)c(O)c4c3C2=O)NC(=O)/C(C)=C\\C=C\\[C@H](C)[C@H](O)[C@@H](C)[C@@H](O)[C@@H](C)[C@H](OC(C)=O)[C@@H]1C", "read-out": "Mean MIC", "strain": "ATCC 25291", "value": "6.25 µg/mL"}
{"smiles": "O=C(O)c1cn(C2CC2)c2c(F)c(N3CCN4CCC3C4)c(F)cc2c1=O", "read-out": "MIC", "strain": "RG4", "value": "0.5 µg/mL"}
{"smiles": "CC(C)(C)n1cc(C(=O)O)c(=O)c2cc(F)c(N3CCNCC3)nc21", "read-out": "MIC", "strain": "PI4/44", "value": "1 µg/mL"}
{"smiles": "c1ccc(CSc2nc3ccccc3o2)nc1", "read-out": "MIC", "strain": "MY330/88", "value": "250 µM"}
{"smiles": "CCn1cc(C(=O)O)c(=O)c2ccc(N3CC(O)C(O)C(O)C3)nc21", "read-out": "MIC", "strain": "PI2/6", "value": ">32 µg/mL"}
{"smiles": "O=C(Nc1ccc(Cl)c(Cl)c1)c1cc(Cl)ccc1OP(=O)(c1ccccc1)c1ccccc1", "read-out": "MIC", "conditions": "7 d", "strain": "MY330/88", "value": "16 µM"}
{"smiles": "CCN(CC)c1nc2c(s1)c1c(O)c3c(O)c(C)c4c(c32)C(=O)[C@@](C)(O/C=C/[C@H](OC)[C@@H](C)[C@@H](OC(C)=O)[C@H](C)[C@H](O)[C@H](C)[C@@H](O)[C@@H](C)/C=C/C=C(/C)C(=O)N1)O4", "read-out": "MBC", "strain": "211-5", "value": "16 µg/mL"}
{"smiles": "CC[C@@H](CO)NCCN[C@@H](CC)CO", "read-out": "MIC", "strain": "1435", "value": "8 µg/mL"}
{"smiles": "NC(=S)c1cc(SCc2ccncc2)ccn1", "read-out": "MIC", "strain": "MY330/88", "value": "32 µM"}
{"smiles": "O=C1c2cc(Cl)ccc2OP(=O)(c2ccccc2)N1c1ccc(Cl)c(Cl)c1", "read-out": "MIC", "conditions": "7 d", "strain": "MY330/88", "value": "16 µM"}
{"smiles": "CO[C@H]1/C=C/O[C@@]2(C)Oc3c(C)c(O)c4c(O)c(c(/C=N/N5CCN(C)CC5)c(O)c4c3C2=O)NC(=O)/C(C)=C\\C=C\\[C@H](C)[C@H](O)[C@@H](C)[C@@H](O)[C@@H](C)[C@H](OC(C)=O)[C@@H]1C", "read-out": "MIC", "strain": "Isolate 90-1065", "value": "5 µg/mL"}
{"smiles": "O=C(Nc1ccc(C(F)(F)F)cc1)c1cc(Cl)ccc1OP(=O)(Oc1ccccc1)Oc1ccccc1", "read-out": "MIC", "conditions": "7 d", "strain": "MY330/88", "value": "8 µM"}
{"smiles": "Nc1ccc(C(=O)O)c(O)c1", "read-out": "Mean MIC", "strain": "ATCC 25291", "value": "72 µg/mL"}
{"smiles": "O=C(Nc1ccc(Cl)c(Cl)c1)c1cc(Cl)ccc1OP(=O)(Oc1ccccc1)Oc1ccccc1", "read-out": "MIC", "conditions": "7 d", "strain": "MY330/88", "value": "16 µM"}
{"smiles": "CN[C@@H]1[C@H](O[C@H]2[C@H](O[C@H]3[C@H](O)[C@@H](O)[C@H](N=C(N)N)[C@@H](O)[C@@H]3N=C(N)N)O[C@@H](C)[C@]2(O)C=O)O[C@@H](CO)[C@H](O)[C@H]1O", "read-out": "MIC", "strain": "3090-C clarithromycin-resistant", "value": "4 µg/mL"}
{"smiles": "CC[C@H]1OC(=O)[C@H](C)[C@@H](O[C@H]2C[C@@](C)(OC)[C@@H](O)[C@H](C)O2)[C@H](C)[C@@H](O[C@@H]2O[C@H](C)C[C@H](N(C)C)[C@H]2O)[C@](C)(OC)C[C@@H](C)C(=O)[C@H](C)[C@@H](O)[C@]1(C)O", "method": "broth dilution / radiometric", "read-out": "MBC", "conditions": "pH 6.8", "strain": "1854", "value": "8 µg/mL"}
{"smiles": "CCOc1c(N2CCC(C(C)(C)N)C2)c(F)cc2c(=O)c(C(=O)O)cn(C3CC3)c12", "read-out": "MIC", "strain": "PI2/8", "value": "0.03 µg/mL"}
{"smiles": "CC[C@H]1OC(=O)[C@H](C)[C@@H](O[C@H]2C[C@@](C)(OC)[C@@H](O)[C@H](C)O2)[C@H](C)[C@@H](O[C@@H]2O[C@H](C)C[C@H](N(C)C)[C@H]2O)[C@](C)(OC)C[C@@H](C)C(=O)[C@H](C)[C@@H](O)[C@]1(C)O", "read-out": "MIC", "strain": "SMD", "value": "0.12 µg/mL"}

Repeating the final 4 entries:

smiles	method	read-out	conditions	strain	value
CN[C@@H]1[C@H](O[C@H]2[C@H](O[C@H]3[C@H](O)[C@@H](O)[C@H](N=C(N)N)[C@@H](O)[C@@H]3N=C(N)N)O[C@@H](C)[C@]2(O)C=O)O[C@@H](CO)[C@H](O)[C@H]1O		MIC		3090-C clarithromycin-resistant	4 µg/mL
CC[C@H]1OC(=O)[C@H](C)[C@@H](O[C@H]2C[C@@](C)(OC)[C@@H](O)[C@H](C)O2)[C@H](C)[C@@H](O[C@@H]2O[C@H](C)C[C@H](N(C)C)[C@H]2O)[C@](C)(OC)C[C@@H](C)C(=O)[C@H](C)[C@@H](O)[C@]1(C)O	broth dilution / radiometric	MBC	pH 6.8	1854	8 µg/mL
CCOc1c(N2CCC(C(C)(C)N)C2)c(F)cc2c(=O)c(C(=O)O)cn(C3CC3)c12		MIC		PI2/8	0.03 µg/mL
CC[C@H]1OC(=O)[C@H](C)[C@@H](O[C@H]2C[C@@](C)(OC)[C@@H](O)[C@H](C)O2)[C@H](C)[C@@H](O[C@@H]2O[C@H](C)C[C@H](N(C)C)[C@H]2O)[C@](C)(OC)C[C@@H](C)C(=O)[C@H](C)[C@@H](O)[C@]1(C)O		MIC		SMD	0.12 µg/mL

Lines come from different laboratories, so protocols vary. MIC50, MIC90 and the like: level of inhibition, or share of isolates inhibited.